Anti-infective test results gathered from many reports (values: NIAID ChemDB through PubChem).

All rows: whole-cell or culture tests; species: HIV-1; cells: MT-4; measure: EC50

Rows are shuffled and stem from different studies.

smiles | changes | method | strain or isolate | value
COc1cc(/C=C/c2nc(NC(=O)Nc3ccc(Cl)cc3)c3ccccc3n2)cc(OC)c1OC |  | MTT | IIIB | >4.97 µg/mL
Nc1ncnc2c1ccn2[C@@H]1C=C[C@H](CO)C1 |  | cytopathic effect / MTS |  | 280 µM
Cc1ccc(C(C)(O)c2c(C)c(=O)[nH]c(=O)n2COCc2ccccc2)cc1 |  | MTT | IIIB | >141.6 µM
O=C1Nc2ccc(Cl)cc2[C@@](C#CC2CC2)(C(F)(F)F)O1 | K103N | MTT |  | 0.0863 µM
CCc1c(Cc2cccc3ccccc23)n(COCCO)c(=O)[nH]c1=O |  |  | LAV | 0.649 µM
Cc1cn([C@H]2C=C[C@@H](CO)O2)c(=O)[nH]c1=O |  | cytopathic effect / MTT | RD 04-RT-210W 215D K65R Recombinant | 0.53 µM
Cc1ccc(-c2c(C)nc3c(c2C(OC(C)(C)C)C(=O)O)CCCN3C(=O)NC2CCCCC2)cc1C |  | MTT | IIIB | 0.0075 µM
COc1ccc(N2CCN(CN3C(=O)C(=Nc4ccc(S(=O)(=O)Nc5nc(C)cc(C)n5)cc4)c4ccccc43)CC2)cc1 |  | cytopathic effect / MTT | IIIB | >44.4 µM
Cc1ccc(S(=O)(=O)NC(Cc2ccccc2)c2nnc(SCc3ccccc3)o2)cc1 |  |  | IIIB | >11.67 µg/mL
Cc1cc(C)nc(NS(=O)(=O)c2ccc(N=C3C(=O)N(CN4CCN(c5ccc([N+](=O)[O-])cc5)CC4)c4ccccc43)cc2)n1 |  | cytopathic effect / MTT | IIIB | >42.62 µM
CCc1c(Cc2ccc3ccccc3c2)n(COCCO)c(=O)[nH]c1=O |  |  | LAV | 45.6 µM
COc1cc(/C=C/c2nc(NC(=S)Nc3ccccc3C)c3ccccc3n2)cc(OC)c1OC |  | MTT | IIIB | >4.05 µg/mL
C=C(c1cccc2ccccc12)c1c(C)c(=O)[nH]c(=O)n1COCc1ccccc1 |  | MTT | IIIB | >30.97 µM
C=C(C)[C@@H]1CC[C@]2(C(=O)OC[C@@H]3OC(n4ccc(N(C(=O)OCC)C(=O)OCC)nc4=O)CS3)CC[C@]3(C)[C@H](CC[C@@H]4[C@@]5(C)CC[C@H](O)C(C)(C)[C@@H]5CC[C@]43C)[C@@H]12 |  |  | IIIB | 5 µM
C[C@]1(CO)O[C@@H](n2cc(F)c(=O)[nH]c2=O)[C@H](O)[C@@H]1O |  |  | IIIB | >100 µM
CC(NS(=O)(=O)c1ccc(Cl)cc1)c1nnc(SCc2ccc(F)cc2)o1 |  |  | IIIB | >58.75 µg/mL
COc1cc(/C=C/c2nc(NC(=S)Nc3ccccc3)c3ccccc3n2)cc(OC)c1OC |  | MTT | IIIB | >5.66 µg/mL
CCOC(=O)C12C(c3ccc(OC)cc3)C3(C(=O)OCC)C4(C)OC1(C)C1(C(=O)OCC)C(c5ccc(OC)cc5)C4(C(=O)OCC)C3(C)OC21C |  | p24 / ELISA | IIIB | 0.02789 µM
CSCCC(NS(=O)(=O)c1ccc(Cl)cc1)c1nnc(SCc2ccccc2)o1 |  |  | IIIB | >12.67 µg/mL
Cc1cn([C@H]2OC(C)(CO)[C@H](O)[C@@H]2O)c(=O)[nH]c1=O |  |  | IIIB | >100 µM
Cc1ccc(S(=O)(=O)NC(Cc2ccccc2)c2nnc(SCc3ccc(F)cc3)o2)cc1 |  |  | IIIB | >90.83 µg/mL
CC(=O)Nc1ccc(SSc2ccc(NC(C)=O)cc2C(N)=O)c(C(N)=O)c1 |  | cytopathic effect / XTT | 6R (AZT-resistant) | 1.6 µM
CC(=O)OC1[C@]2(C)[C@H]3CC(C)(C)C(=O)[C@@H]3C[C@@]1(OC(C)=O)[C@H](OC(=O)CO)[C@H]1[C@@H](OC(=O)c3ccccc3)[C@@H](C)C[C@]1(O)[C@@H]2OC(C)=O |  | cytopathic effect / MTT | IIIB | >100 µg/mL
CSCCC(NS(=O)(=O)c1ccc(Cl)cc1)c1nnc(SCc2ccc(Cl)cc2)o1 |  |  | IIIB | >11.88 µg/mL
Cn1cc(NC(=O)Nc2cc(C(=O)Nc3cc(C(=O)Nc4ccc(S(=O)(=O)O)c5cc(S(=O)(=O)O)ccc45)n(C)c3)n(C)c2)cc1C(=O)Nc1cc(C(=O)Nc2ccc(S(=O)(=O)O)c3cc(S(=O)(=O)O)ccc23)n(C)c1 |  | cytopathic effect / XTT | N119(NEV-R) | 1.2 µM
C=C(C)[C@@H]1CC[C@]2(C(=O)O)CC[C@]3(C)[C@H](CC[C@@H]4[C@@]5(C)CC[C@H](OC(=O)CCCC(=O)OC[C@H]6OC(n7cc(C)c(=O)[nH]c7=O)C[C@@H]6N=[N+]=[N-])C(C)(C)[C@@H]5CC[C@]43C)[C@@H]12 |  |  | IIIB | 0.012 µM
Cc1c(C(C)(O)c2ccc(Cl)cc2)n(COCc2ccccc2)c(=O)[nH]c1=O |  | MTT | IIIB | >89.07 µM
Cc1cc(C#N)cc(C)c1Oc1nc(NC2CCC(NCc3ccc(F)cc3)CC2)nc2ccsc12 | NNRTI-resistant (RT E138K) | MTT | IIIB | ≥1.31 µM
CCOC(CSc1nc(Cc2cccc3ccccc23)c(CC)c(=O)[nH]1)OCC |  | cytopathic effect / MTT | IIIB | >100 µM
CCC(C)C(NC(=O)c1ccccc1SSc1ccccc1C(=O)NC(C(=O)O)C(C)CC)C(=O)O | Pyridone-resistant | cytopathic effect / XTT | A17 | 5.1 µM
Cc1cc(C#N)cc(C)c1Oc1nc(NC2CCC(NCc3cccc(C(F)(F)F)c3)CC2)nc2ccsc12 | NNRTI-resistant (RT Y188L) | MTT | IIIB | >707 µM
Cc1ccc(S(=O)(=O)NC(Cc2ccccc2)c2nnc(SCc3ccc(Cl)cc3)o2)cc1 |  |  | IIIB | >99.4 µg/mL
Cc1c(C(C)c2cccc(F)c2)n(COCc2ccccc2)c(=O)[nH]c1=O |  | MTT | IIIB | >339.3 µM
Cc1cc(C)nc(NS(=O)(=O)c2ccc(N=C3C(=O)N(CN4CCN(c5ccc([N+](=O)[O-])cc5)CC4)c4ccc(F)cc43)cc2)n1 |  | cytopathic effect / MTT | IIIB | >44.12 µM
Cc1cc(/C=C/C#N)cc(C)c1Oc1nc(NC2CCN(Cc3cccc(C(N)=O)c3)CC2)nc2ccsc12 | NNRTI-resistant (RT E138K) | MTT | IIIB | 0.00641 µM
O=c1ccn(C23C=C[C@@H](CO)[C@@H]2C3)c(=O)[nH]1 |  | MTT | IIIB | >100 µg/mL
CCOC(=O)C12C(c3ccc(NC(C)=O)cc3)C3(C(=O)OCC)C4(C)OC1(C)C1(C(=O)OCC)C(c5ccc(NC(C)=O)cc5)C4(C(=O)OCC)C3(C)OC21C |  | p24 / ELISA | IIIB | 0.05608 µM
CC(=O)O[C@@H]1[C@H]2[C@@H](OC(=O)c3ccccc3)[C@@H](C)C[C@]2(O)[C@H](OC(C)=O)[C@@]2(C)[C@@H]3CC(C)(C)C(=O)[C@]3(OC(C)=O)C[C@@]12C |  | cytopathic effect / MTT | IIIB | 14 µg/mL
Cc1cc(C#N)cc(C)c1Oc1nc(NC2CCC(NCc3ccccc3)CC2)nc2ccsc12 | NNRTI-resistant (RT Y188L) | MTT | IIIB | >2.98 µM
Cc1ccc(S(=O)(=O)NC(C)c2nnc(SCc3ccc(Cl)cc3)o2)cc1 |  |  | IIIB | >27.93 µg/mL
CCc1c(Cc2cccc3ccccc23)n2c(nc1=O)SCC2OC |  | cytopathic effect / MTT | IIIB | >100 µM
Nc1ncnc2c1ccn2[C@H]1C=C[C@@H](CO)C1 |  | cytopathic effect / MTS |  | >200 µM
Cc1cc(/C=C/C#N)cc(C)c1Oc1nc(NC2CCN(Cc3ccccc3Cl)CC2)nc2ccsc12 | NNRTI-resistant (RT Y188L) | MTT | IIIB | 0.207 µM
Cc1cccc(C(C)c2c(C(C)C)c(=O)[nH]c(=O)n2COCc2ccccc2)c1 |  | MTT | IIIB | 0.23 µM
Cc1cc(C)nc(NS(=O)(=O)c2ccc(N=C3C(=O)N(CN4CCN(c5cc6c(cc5F)c(=O)c(C(=O)O)cn6C)CC4C)c4ccccc43)cc2)n1 |  | cytopathic effect / MTT | IIIB | 22.6 µM
Cc1c(Cc2cccc3ccccc23)n(COCc2ccccc2)c(=O)[nH]c1=O |  |  | LAV | 0.041 µM
CC(=O)OCC(=O)O[C@@H]1[C@H]2[C@@H](OC(=O)c3ccccc3)[C@@H](C)C[C@]2(O)[C@H](OC(C)=O)[C@]2(C)C(OC(C)=O)[C@@]1(OC(C)=O)C[C@H]1C(=O)C(C)(C)C[C@@H]12 |  | cytopathic effect / MTT | IIIB | >100 µg/mL
COc1cc(/C=C/c2nc(NC(=O)Nc3cccc(Cl)c3)c3ccccc3n2)cc(OC)c1OC |  | MTT | IIIB | >2.08 µg/mL
C[C@H](NP(=O)(OC[C@@H]1C=C[C@H](n2ccc3c(N)ncnc32)C1)Oc1ccccc1)C(=O)OCc1ccccc1 |  | cytopathic effect / MTS |  | >78 µM
CCc1c(Cc2cccc3ccccc23)n2c(nc1=O)SCC2OCCO |  | cytopathic effect / MTT | IIIB | >100 µM
COc1cc(/C=C/c2nc(NC(=O)Nc3ccccc3)c3ccccc3n2)cc(OC)c1OC |  | MTT | IIIB | >1.69 µg/mL
COc1c(N2CCN(CN3C(=O)C(=Nc4ccc(S(=O)(=O)Nc5nc(C)cc(C)n5)cc4)c4cc(F)ccc43)C(C)C2)c(F)cc2c(=O)c(C(=O)O)cn(C3CC3)c12 |  | cytopathic effect / MTT | IIIB | 12.1 µM
CN1CCc2c(c(O)c3n2CCN(Cc2ccc(F)cc2)C3=O)C1=O |  | p24 |  | <10 µM
CC(C)c1c(Cc2cccc3ccccc23)n(COCc2ccccc2)c(=O)[nH]c1=O |  |  | LAV | 0.021 µM
CCOC(=O)C12C(c3ccccc3)C3(C(=O)OCC)C4(C)OC1(C)C1(C(=O)OCC)C(c5ccccc5)C4(C(=O)OCC)C3(C)OC21C |  | p24 / ELISA | IIIB | 0.03051 µM
Cc1cc(C#N)cc(C)c1Oc1nc(NC2CCC(NCc3ccc([N+](=O)[O-])cc3)CC2)nc2ccsc12 | NNRTI-resistant (RT E138K) | MTT | IIIB | 0.158 µM
CCOC(=O)C12C(c3ccc(F)c(F)c3)C3(C(=O)OCC)C4(C)OC1(C)C1(C(=O)OCC)C(c5ccc(F)c(F)c5)C4(C(=O)OCC)C3(C)OC21C |  | p24 / ELISA | IIIB | 0.02857 µM
COc1cc(/C=C/c2nc(NC(=S)Nc3ccc(C)cc3)c3ccccc3n2)cc(OC)c1OC |  | MTT | IIIB | >1.7 µg/mL
O=c1ccn(N2C[C@H](CO)[C@H]2CO)c(=O)[nH]1 |  | antigen |  | >100 µg/mL
CCC(c1ccc(F)cc1)c1c(C)c(=O)[nH]c(=O)n1COCc1ccccc1 |  | MTT | IIIB | >73.82 µM
CCOC(=O)C12C(c3ccc(Cl)c(Cl)c3)C3(C(=O)OCC)C4(C)OC1(C)C1(C(=O)OCC)C(c5ccc(Cl)c(Cl)c5)C4(C(=O)OCC)C3(C)OC21C |  | p24 / ELISA | IIIB | 0.106 µM
COc1ccc(-c2c(C)nc(NC(=O)NC3CCCCC3)c(C)c2C(OC(C)(C)C)C(=O)O)cc1 |  | MTT | IIIB | 0.01 µM
COc1cc(/C=C/c2nc(NC(=O)Nc3cccc(C)c3)c3ccccc3n2)cc(OC)c1OC |  | MTT | IIIB | >0.96 µg/mL
CC(C)OC(=O)[C@H](C)NP(=O)(OC[C@H]1C=C[C@@H](n2cnc3c(N)ncnc32)C1)Oc1ccccc1 |  | cytopathic effect / MTS |  | 0.425 µM
COc1ccc(-c2c(C)nc(NC(=O)NC3CCCCC3)c(C)c2C(OC(C)(C)C)C(=O)O)c(C)c1 |  | MTT | IIIB | 0.01 µM
COC1CSc2nc(=O)c(C(C)C)c(Cc3ccccc3)n21 |  | cytopathic effect / MTT | IIIB | >100 µM
Cc1cc(C)nc(NS(=O)(=O)c2ccc(N=C3C(=O)N(CN4CCN(c5cc6c(cc5F)c(=O)c(C(=O)O)cn6C5CC5)CC4)c4ccccc43)cc2)n1 |  | cytopathic effect / MTT | IIIB | 31.06 µM
Cc1ccc(S(=O)(=O)N(Cc2ccc(Br)cc2)C(C)c2nnc(SCc3ccc(Br)cc3)o2)cc1 |  |  | IIIB | >125 µg/mL
Cc1ccc(-c2c(C)nc(NC(=O)NC3CCCCC3)c(C)c2C(OC(C)(C)C)C(=O)O)cc1C |  | MTT | IIIB | 0.0078 µM
CC(C)CN(C[C@@H](O)[C@H](Cc1ccccc1)NC(=O)O[C@H]1CCOC1)S(=O)(=O)c1ccc(N)cc1 | V32I I50V L76V G73S V82I | reporter gene | T13717 | 30000 nM
COc1cc(/C=C/c2nc(NC(=O)Nc3ccc([N+](=O)[O-])cc3)c3ccccc3n2)cc(OC)c1OC |  | MTT | IIIB | >1.72 µg/mL
Cc1c(C(C)c2ccccc2)n(COCc2ccccc2)c(=O)[nH]c1=O |  | MTT | IIIB | >357 µM
Cc1nc(NC(=O)Nc2ccc(F)cc2)c(C)c(C(OC(C)(C)C)C(=O)O)c1-c1ccc2c(c1)CCCO2 |  | MTT | IIIB | 0.014 µM

For reference, 7 entries again:

smiles | changes | method | strain or isolate | value
CCOC(=O)C12C(c3ccc(Cl)c(Cl)c3)C3(C(=O)OCC)C4(C)OC1(C)C1(C(=O)OCC)C(c5ccc(Cl)c(Cl)c5)C4(C(=O)OCC)C3(C)OC21C |  | p24 / ELISA | IIIB | 0.106 µM
CCOC(CSc1nc(Cc2cccc3ccccc23)c(CC)c(=O)[nH]1)OCC |  | cytopathic effect / MTT | IIIB | >100 µM
C[C@H](NP(=O)(OC[C@@H]1C=C[C@H](n2ccc3c(N)ncnc32)C1)Oc1ccccc1)C(=O)OCc1ccccc1 |  | cytopathic effect / MTS |  | >78 µM
CN1CCc2c(c(O)c3n2CCN(Cc2ccc(F)cc2)C3=O)C1=O |  | p24 |  | <10 µM
Nc1ncnc2c1ccn2[C@@H]1C=C[C@H](CO)C1 |  | cytopathic effect / MTS |  | 280 µM
Cc1ccc(-c2c(C)nc(NC(=O)NC3CCCCC3)c(C)c2C(OC(C)(C)C)C(=O)O)cc1C |  | MTT | IIIB | 0.0078 µM
Cc1ccc(-c2c(C)nc3c(c2C(OC(C)(C)C)C(=O)O)CCCN3C(=O)NC2CCCCC2)cc1C |  | MTT | IIIB | 0.0075 µM

An empty or dashed field is not shown. ECn: concentration that inhibits the pathogen or its effect by n%.